The results in this text go back to patent publication US20230357406.

The target in assay [1] is human Fc-CTLA-4 protein, human, P16410 36-161. The assay can be described thus: ELISA. (In general: In an ELISA, binding on a coated surface is turned into a signal by an enzyme label.)
In assay [2] the target is T1, non-human primate (NHP) Fc-CTLA-4 protein, non-human primate (NHP).
T1 sequence: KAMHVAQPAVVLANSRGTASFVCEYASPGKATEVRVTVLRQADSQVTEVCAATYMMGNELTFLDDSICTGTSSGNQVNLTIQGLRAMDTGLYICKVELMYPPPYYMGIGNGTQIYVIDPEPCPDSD
Nature of the assay: ELISA.

As usually defined, the EC50 is the midpoint of the concentration-response curve.

Turning to CTLA-4 ETB 118421, the concentration giving a half-maximal response (EC50) worked out at 0.59 nM in assay [1] and 0.38 nM in assay [2].
